Assay results published in patent publication US8536319B2, “Compounds and methods for detecting ricin and uses thereof” (dated 2013).

Tests used:
[1] = system: A-14 / ab-14 (substrate and product of the RTA reaction); experiment: One pot RTA assay, substrate A-14 (product ab-14)
A-14 = experiment: Hybridization of molecular beacons with model sequence A-14 (fluorescence); settings: for fluorescence of duplex enhanced relative to beacon hairpin alone: duplex with A-14, 1.2:1 ratio, pH 7.6, λex 490 nm
dab-14 = experiment: Hybridization of molecular beacons with model sequence dab-14 (fluorescence); settings: for fluorescence of duplex enhanced relative to beacon hairpin alone: duplex with dab-14, 1.2:1 ratio, pH 7.6, λex 490 nm; for discrimination between A-14 and dab-14: hybridization of model sequences, pH 7.6
[2] = Thermal denaturation experiments
[3] = system: A14-2dA / product of the RTA reaction; experiment: One pot RTA assay, substrate A14-2dA

Substance | enhancement of fluorescence for A-14 relative to ab-14 ([1]; one pot system) [%] | discrimination factor ([1]; one pot system, A-14 relative to ab-14) | fluorescence of duplex enhanced relative to beacon hairpin alone (A-14) [fold] | discrimination factor (A-14; model system) | enhancement of fluorescence for A-14 relative to abasic sequence (A-14; model system) [%] | dependence of enhancement in fluorescent intensity on salt concentration (A-14; λex=490 nm, λem=515 nm) | fluorescence of duplex enhanced relative to beacon hairpin alone (dab-14) | discrimination between A-14 and dab-14 (dab-14) | Tm of heteroduplex ([2]; MB1:A-14 heteroduplex, could not be fitted) | enhancement of fluorescence of ab-14 (product) relative to A-14 ([1]; one pot system) [%] | increase in intensity of product over that of the substrate ([1]; substrate not specified) | enhancement of fluorescence of the product relative to A14-2dA ([3]; one pot system) [%] | discrimination of the product ([3]; one pot, A14-2dA as the substrate) | dependence of discrimination on monovalent salt concentration (dab-14; 50, 100 and 200 mM KCl, A-14 vs dab-14) | discrimination by pyrene monomer emission (dab-14; excitation at 348 nm, A-14 vs dab-14) | enhancement of fluorescence of abasic sequence relative to A-14 (dab-14; model system) [%] | Tm of duplex ([2]; dab-14:MB2 duplex, 20 mM triethanolamine pH 7.6, 100 mM KCl, 10 mM MgCl2) [°C]
5′-6-FAM-d(CGCGCTCTCGCGCG) (SEQ ID NO:1)-BHQ1-3′ | 20 | 1.22 | 4 | 1.4 | 40 | independent of the salt concentration | almost no enhancement | Complete discrimination | exceeds 80 °C |  |  |  |  |  |  |  | 
5′-FAM-d(CGCGCTCPyCGCGCG)-Dab-3′ |  |  | 2 |  |  |  | 4 fold | lower with the MB2 beacon than with MB1 |  | 20 | 20-25% | 40 | 1.4 | decrease with increasing salt concentration | no discrimination | 40 | 69
